Results of unrelated studies side by side (data: NIAID ChemDB).

All rows: tests in culture; species: HIV-1; measure: EC50

ECn: concentration that inhibits the pathogen or its effect by n%. Rows are shuffled and stem from different studies. An empty or dashed field is not shown. a–b is a range or a potency band.

structure | read by | changes | cell line | strain | result
CC(C)C1=C2[C@H]3CC[C@@H]4[C@@]5(C)CC[C@H](OC(=O)[C@H]6C[C@@H](C(=O)O)C6(C)C)C(C)(C)[C@@H]5CC[C@@]4(C)[C@]3(C)CC[C@@]2(CC(=O)NCC(C)(C)NC(=O)CN2CCCCC2)CC1=O | p24 / ELISA |  | MT-2 | 92HT599 | <1 µM
CC(C)CN(C[C@@H](O)[C@H](Cc1ccccc1)NC(=O)O[C@H]1CCOC1)S(=O)(=O)c1ccc(N)cc1 | reporter gene | V32I I50V L76V G73S V82I | MT-4 | T13717 | 30000 nM
CC1CC(C)CN(S(=O)(=O)c2ccccc2[N+](=O)[O-])C1 | GFP / fluorescence |  | HeLa | N119 | 41.1 µM
Cc1ncc(-c2cnc(OCC[Si](C)(C)C)c(F)c2)c(N2CCC(C)(C)CC2)c1[C@H](OC(C)(C)C)C(=O)O | luminescence |  | MT-2 | NL4-3 | 0.0132 µM
[2H]C(CCCCN)(NC(=O)c1ccc(Cl)cc1)C(=O)NC[C@H](O)[C@@]12CC[C@]3(C)[C@H](CC[C@@H]4[C@@]5(C)CC[C@H](OC(=O)[C@H]6C[C@@H](C(=O)O)C6(C)C)C(C)(C)[C@@H]5CC[C@]43C)C1=C(C(C)C)C(=O)C2 | p24 / ELISA |  | MT-2 | 92HT599 | <1 µM
Cc1cccc(OCCOc2ccc(-c3cnc(C)c([C@H](OC(C)(C)C)C(=O)O)c3N3CCC(C)(C)CC3)nc2)c1 | luminescence |  | MT-2 | NL4-3 | 0.0009 µM
Cc1cc(OCCCS(N)(=O)=O)ccc1NC(=O)COc1ccc(Cl)cc1C(=O)c1cc(F)cc(C(F)(F)F)c1 | β-galactosidase | RT-V106I Y181C | HeLa + HELA CD4+ | HXB2 | 0.011–0.1 µM
CC(=O)c1c(C)nc(-c2ccccc2)nc1NC(=O)c1ccccc1 | GFP / fluorescence |  | HeLa | N119 | >50 µM
Cc1cc(S(N)(=O)=O)ccc1NC(=O)COc1ccc(Cl)cc1C(=O)c1cc(F)cc(C(F)(F)F)c1 | β-galactosidase | RT-V106A | HeLa + HELA CD4+ | HXB2 | 0.011–0.1 µM
Nc1nc(NC2CC2)c2ncn([C@H]3C=C[C@@H](CO)C3)c2n1 | recombinant virus assay | K103N/Y188L | MT-2 | Clinical isolate | 0.1056 µM
CCc1cc(C#N)cc(C(=O)c2cc(Cl)ccc2OCC(=O)Nc2ccc(S(N)(=O)=O)cc2C)c1 | β-galactosidase | RT-K103N G190A | HeLa + HELA CD4+ | HXB2 (RT-K103N G190A) Recombinant | <0.01 µM
CCC(=O)c1ccc(F)c([C@@H]2C[C@@H]2NC(=O)Nc2ccc(C#N)cn2)c1O | β-galactosidase / luminescence | NNRTI-resistant (RT H221Y) | TZM-bl | LAI | 0.00091 µM
Cc1ncc(-c2ccc(OCCC3CCCC3)cn2)c(N2CCC(C)(C)CC2)c1[C@H](OC(C)(C)C)C(=O)O | luminescence |  | MT-2 | NL4-3 | 0.0009 µM
CC(C)C1=C2[C@H]3CC[C@@H]4[C@@]5(C)CC[C@H](OC(=O)[C@H]6C[C@@H](C(=O)O)C6(C)C)C(C)(C)[C@@H]5CC[C@@]4(C)[C@]3(C)CC[C@@]2(CC(=O)NCC2(NC(=O)c3ccc(Cl)cc3)CNC2)CC1=O | p24 / ELISA |  | MT-2 | 92HT599 | <1 µM
Cc1cc(F)ccc1OCCOc1ccc(-c2cnc(C)c([C@H](OC(C)(C)C)C(=O)O)c2N2CCC(C)(C)CC2)nc1 | luminescence |  | MT-2 | NL4-3 | 0.001 µM
Cc1cc(C#N)cc(C(=O)c2cc(Cl)ccc2OCC(=O)Nc2ccc(S(N)(=O)=O)cc2C)c1 | β-galactosidase | RT-K103N V108I | HeLa + HELA CD4+ | HXB2 | <0.01 µM
CC1(C)CC=C(c2cn(-c3nccc(C(=O)NC4CCC(N5CC6CCC(C5)O6)CC4)n3)c3ccc(F)c([C@H](OC(C)(C)C)C(=O)O)c23)CC1 | luminescence | T124A/T125A | MT-4 | NL4-3 | 0.0048 µM
CC(C)C1=C2[C@H]3CC[C@@H]4[C@@]5(C)CC[C@H](OC(=O)[C@H]6C[C@@H](C(=O)O)C6(C)C)C(C)(C)[C@@H]5CC[C@@]4(C)[C@]3(C)CC[C@@]2(CCNCC(CN)NC(=O)c2ccc(Cl)cc2)CC1=O | p24 / ELISA |  | MT-2 | 92HT599 | <1 µM
Cc1nc2ccccc2c(-c2cc(F)c3c(c2C)CCCO3)c1[C@H](OC(C)(C)C)C(=O)O | luminescence | E138K/Q148K | MT-4 | NL4-3 | 0.017 µM
C[C@H](Cn1cnc2c(N)ncnc21)OCP(=O)(O)O | recombinant virus assay | T69ins/K70R/M184V/K219Q | MT-2 | Clinical isolate | 0.0172 µM
CC(C)C1=C2[C@H]3CC[C@@H]4[C@@]5(C)CC[C@H](OC(=O)[C@H]6C[C@@H](C(=O)O)C6(C)C)C(C)(C)[C@@H]5CC[C@@]4(C)[C@]3(C)CC[C@@]2(CCNCC2(NC(=O)c3ccc(Cl)cc3)CCC2)CC1=O | p24 / ELISA |  | MT-2 | 92HT599 | <1 µM
Cc1ncc(-c2ccc(OCCN3CCC(C)CC3)cn2)c(N2CCC(C)(C)CC2)c1[C@H](OC(C)(C)C)C(=O)O | luminescence |  | MT-2 | NL4-3 | 0.0144 µM
Cc1cc(C#N)cc(C(=O)c2cc(Cl)ccc2OCC(=O)Nc2ccc(S(N)(=O)=O)nc2C)c1 | β-galactosidase | RT-K103N V108I | HeLa + HELA CD4+ | HXB2 | <0.01 µM
CC(C)C1=C2[C@H]3CC[C@@H]4[C@@]5(C)CC[C@H](OC(=O)[C@H]6C[C@@H](C(=O)O)C6(C)C)C(C)(C)[C@@H]5CC[C@@]4(C)[C@]3(C)CC[C@@]2([C@@H](O)CNC[C@@H]2CCCNC2)CC1=O | p24 / ELISA |  | MT-2 | 92HT599 | <1 µM
O=C(COc1ccc(Cl)cc1C(=O)c1nccs1)Nc1ccccc1 | cytopathic effect / propidium iodide | RT-Y181C | MT-4 | Nevirapine-resistant (RT Y181C) | 1–3 µM
Cc1ncc(-c2ccc(OC[C@@H]3CCCO3)cn2)c(N2CCC(C)(C)CC2)c1[C@H](OC(C)(C)C)C(=O)O | luminescence |  | MT-2 | NL4-3 | 0.0017 µM
Cc1cc(S(N)(=O)=O)ccc1NC(=O)COc1ccc(Cl)cc1C(=O)c1cc(F)cc(F)c1 | β-galactosidase | RT-V106I | HeLa + HELA CD4+ | HXB2 | <0.01 µM
CCOCC(C)Oc1ccc(-c2cnc(C)c([C@H](OC(C)(C)C)C(=O)O)c2N2CCC(C)(C)CC2)nc1 | luminescence |  | MT-2 | NL4-3 | 0.0016 µM

The last 3 rows once more:

structure,read by,changes,cell line,strain,result
Cc1ncc(-c2ccc(OC[C@@H]3CCCO3)cn2)c(N2CCC(C)(C)CC2)c1[C@H](OC(C)(C)C)C(=O)O,luminescence,,MT-2,NL4-3,0.0017 µM
Cc1cc(S(N)(=O)=O)ccc1NC(=O)COc1ccc(Cl)cc1C(=O)c1cc(F)cc(F)c1,β-galactosidase,RT-V106I,HeLa + HELA CD4+,HXB2,<0.01 µM
CCOCC(C)Oc1ccc(-c2cnc(C)c([C@H](OC(C)(C)C)C(=O)O)c2N2CCC(C)(C)CC2)nc1,luminescence,,MT-2,NL4-3,0.0016 µM